Here are results for 70 compounds from PubChem BioAssay AID1259309 (ICCB-Longwood Screening Facility, Harvard Medical School, 2017).

SMILES strings stand for the structures. The list shows a part of the results, in another mix than the full data. The source made the active and inactive calls. No stated cut-off is given here; in the data, active means growth inhibition above about 68%; inactive means the rest.

The nature of this assay: growth inhibition of ugtP-null S. aureus, primary screen, RN4220 ugtP deletion, OD600 (AID 1259309).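 Further: plate controls were untreated wells for no effect and antibiotic for full effect.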 The settings on record: 16 h, stronger effect = higher value.
Turning to `COc1cc(C(=O)NCC2(N3CCOCC3)CCCCC2)cc(OC)c1C`, the growth inhibition is inactive: 0.717%. As for `O=C(NCC1(N2CCOCC2)CCCCC1)c1cc(Br)ccc1Cl`, the growth inhibition was inactive: 2.46%. In the case of `COc1ccc(C(=O)NCC2(N3CCOCC3)CCCCC2)cc1OC` it was inactive: 8.6%; in that of `CCOC(=O)N1CCC(Nc2ccc(C)cc2)CC1`, inactive: 11.8%; in that of `CCc1cc(C(=O)NCC2(N3CCCCC3)CCCCC2)sc1C`, inactive: 10.4%. The figure for `O=C(OC1CN2CCC1CC2)C1c2ccccc2C=Cc2ccccc21` (stereo not given) is inactive: 0.116%; for `N#Cc1ccc(C(=O)NCC2(N3CCCCC3)CCCCC2)cc1` it is inactive: 2.05%.

`CC(C)(C)OC(=O)N1CCC(N(C(=O)c2ccccc2)c2ccc(Cl)cc2)CC1`: the growth inhibition was inactive: 29%. The figure for `CN(C)C1(CNC(=O)c2cccc(C#N)c2)CCCCC1` is inactive: -0.268%; for `CCCN1CCC(Nc2cc(OC)cc(OC)c2)CC1` it is inactive: 6.13%. For the compound `c1ccc(CN2CCC(Nc3ccccc3)CC2)cc1`, the growth inhibition was inactive: 6.85%. In the case of `CC(=O)N(c1ccccc1)C1CCNCC1` it was inactive: 3.38%; in that of `COc1cc(OC)cc(C(=O)NCC2(N3CCCCC3)CCCCC2)c1`, inactive: 7.08%; in that of `Fc1ccccc1NC1CCN(Cc2ccccc2)CC1`, inactive: 1.4%. The figure for `Cc1ccc(C(=O)NCC2(N3CCCCC3)CCCCC2)o1` is inactive: 2.63%; for `Cc1ccc(NC2(C#N)CCN(Cc3ccccc3)CC2)cc1` it is inactive: -0.433%; for `CCN1CCC(Nc2cccc(F)c2)CC1` it is inactive: 6.79%. Consider `Cc1ccccc1NC1(C#N)CCN(Cc2ccccc2)CC1`, for which the growth inhibition is inactive: 3.25%.

In the case of `CN(C)c1ccc(C(=O)NCC2(N3CCCCC3)CCCCC2)cc1`, the growth inhibition was inactive: 6.15%.

`Cn1c(=O)[nH]cc(N(CCCl)CCCl)c1=O`: the growth inhibition was inactive: 1.86%. The figure for `O=C(NCC1(N2CCCCC2)CCCCC1)c1ccco1` is inactive: 2.57%. For the compound `CN1CCC(Nc2ccc(F)c(Cl)c2)CC1`, the growth inhibition was inactive: -3.36%.

As for `CCOc1ncccc1C(=O)NCC1(N2CCOCC2)CCCCC1`, the growth inhibition is inactive: 2.85%.

With `O=C(O)C1(Nc2ccccc2)CCN(Cc2ccccc2)CC1`, the growth inhibition is inactive: 5.47%.

On to `CC(C)(C)OC(=O)N1CCC(Nc2ccccc2)CC1`, for which the growth inhibition was inactive: -10.1%.

With `CCCOc1ccc(C(=O)NCC2(N(C)C)CCCCC2)cc1`, the growth inhibition is inactive: 13.9%. The figure for `COc1cccc(C(=O)N(c2cc(C)cc(C)c2)C2CCN(C(=O)OC(C)(C)C)CC2)c1` is inactive: -2.79%. As to `COc1cc(OC)cc(C(=O)NCC2(N3CCOCC3)CCCCC2)c1`, the growth inhibition is inactive: 2.9%. The figure for `CN1CCC(Nc2ccc(Cl)cc2)CC1` is inactive: 3.42%; for `CC(C)(C)OC(=O)N1CCC(N(C(=O)c2ccccc2)c2ccc(F)cc2)CC1` it is inactive: 4.85%. In the case of `COc1ccc(C(=O)NCC2(N3CCCCC3)CCCCC2)c(OC)c1OC` it was inactive: -11.2%; in that of `COc1ccc(C(=O)NCC2(N3CCCCC3)CCCCC2)cc1`, inactive: 16%. In the case of `O=C(NCC1(N2CCCCC2)CCCCC1)c1cccs1` it was inactive: 2.54%; in that of `O=C(NCC1(N2CCCCC2)CCCCC1)c1ccc(=O)[nH]c1`, inactive: 5.67%. For `Cc1cccc(NC2(C#N)CCN(Cc3ccccc3)CC2)c1`, the growth inhibition was inactive: 4%.

Consider `CSc1ccccc1C(=O)NCC1(N2CCCCC2)CCCCC1`, for which the growth inhibition was inactive: 11.4%. The figure for `Cc1cc(C)cc(N(C(=O)c2ccccc2)C2CCN(C(=O)OC(C)(C)C)CC2)c1` is inactive: 20.7%.

For `O=C(NCC1(N2CCCCC2)CCCCC1)c1ccc(Cl)nc1`, the growth inhibition was inactive: 0.438%. In the case of `O=C(NCC1(N2CCOCC2)CCCCC1)c1cc2ccccc2o1` it was inactive: 5.87%; in that of `COc1ccc(Cl)cc1C(=O)NCC1(N2CCOCC2)CCCCC1`, inactive: -2.8%; in that of `O=C(NCC1(N2CCCCC2)CCCCC1)c1ccc(Cl)s1`, inactive: 8.16%. The figure for `N#CC1(Nc2ccccc2)CCN(Cc2ccccc2)CC1` is inactive: 0.237%; for `O=C(OC1CN2CCC1CC2)C1c2ccccc2Oc2ccccc21` (stereo not given) it is inactive: 8.04%. In the case of `CCOC(=O)N1CCC(Nc2ccc(OC)cc2)CC1` it was inactive: 4.42%; in that of `CCOc1ccc(C)cc1CN(CCCl)CCCl`, inactive: 3.26%. As for `CCOC(=O)N1CCC(Nc2ccc(F)cc2)CC1`, the growth inhibition is inactive: 10.6%. Turning to `COc1ccc(NC2CCN(CCc3ccccc3)CC2)c(OC)c1`, the growth inhibition is inactive: 7.53%. The figure for `CCCCOc1ccc(C(=O)NCC2(N3CCOCC3)CCCCC2)cc1` is inactive: 4.92%; for `O=P1(N(CCCl)CCCl)SCCCS1` it is inactive: 4.09%; for `O=C(NCC1(N2CCCCC2)CCCCC1)c1ccc(F)cc1` it is inactive: 2.93%. On to `CCOC(=O)N1CCC(Nc2cccc(C)c2)CC1`, for which the growth inhibition was inactive: 0.945%. In the case of `COc1cc(C(=O)NCC2(N(C)C)CCCCC2)ccc1OC(F)F`, the growth inhibition was inactive: 1.23%. The figure for `O=C(NCC1(N2CCCCC2)CCCCC1)c1ccc(OC(F)F)cc1` is inactive: -2.47%. The figure for `N#CC1(Nc2ccccc2)CCN(CCc2ccccc2)CC1` is inactive: 1.82%; for `CCN1CCC(Nc2ccc(Cl)cc2)CC1` it is inactive: 1.18%; for `O=C(NCC1(N2CCCCC2)CCCCC1)c1cccc([N+](=O)[O-])c1` it is inactive: 9.64%. In the case of `CSc1ccc(C(=O)NCC2(N3CCOCC3)CCCCC2)cc1` it was inactive: 6.38%; in that of `O=C(NCC1(N2CCCCC2)CCCCC1)c1cccc(C(F)(F)F)c1`, inactive: 9.02%. Take `O=C(NCC1(N2CCOCC2)CCCCC1)c1cc(=O)[nH]c2ccccc12`: the growth inhibition is inactive: 6.57%. In the case of `COc1cc(C(=O)NCC2(N3CCCCC3)CCCCC2)ccc1OC(F)F`, the growth inhibition was inactive: 8.89%. The figure for `CC(C)c1ccc(C(=O)NCC2(N3CCOCC3)CCCCC2)cc1` is inactive: 9.44%; for `COc1ccc(NC2CCN(C(=O)OC(C)(C)C)CC2)cc1` it is inactive: -9.88%; for `CN1CCN(CCOC(=O)C(O)(c2ccccc2)c2ccccc2)CC1` it is inactive: 2.65%. In the case of `CC(C)c1ccc(NC2CCN(C(=O)OC(C)(C)C)CC2)cc1` it was inactive: 6.46%. The figure for `CN(C)c1cccc(C(=O)NCC2(N3CCCCC3)CCCCC2)c1` is inactive: 8.62%; for `COc1ccc(CN(CCCl)CCCl)cc1Cl` it is inactive: 0.498%; for `O=C(NCC1(N2CCOCC2)CCCCC1)c1cc(F)c(F)cc1Cl` it is inactive: 6.13%. Regarding `COc1cc(OC)c(C(=O)NCC2(N(C)C)CCCCC2)cc1OC`, the growth inhibition was inactive: 7.51%.

For the compound `O=C(NCC1(N2CCCCC2)CCCCC1)c1cncc(Br)c1`, the growth inhibition was inactive: -3.16%.

Take `CCCOc1ccc(C(=O)NCC2(N(C)C)CCCCC2)cc1OC`: the growth inhibition is inactive: 16.8%.
